Assay results from US7678538B2, “Disinfection of biological fluids using asymmetric cyanine dyes” (American National Red Cross, priority 2005, dated 2010).

Test system: RBCs
Experiment: Dye binding assay (spectroscopic, RBC supernatant)

With `CN1/C(=C/c2cc[n+](C)c3ccccc23)Sc2ccccc21.Cc1ccc(S(=O)(=O)[O-])cc1` [TO, 1-methyl-4-[(3-methyl-2(3H)-benzothiazolylidene)methyl]quinoliniump-tosylate] the “decrease of supernatant adsorption peak after incubation with RBCs” value (80 μM TO, 20% Hct RBCs in RAS-2, 60 minutes, peak approximately 470 nm, n=4) was 20.5±6.4% and the “dye bound to RBCs” value (TO, 20% hematocrit RBCs in RAS-2) was “Approximately 21%”.
